US12233083B2, “Methods for the use of 5′-adenosine diphosphate ribose (ADPR)” (Invirsa, Inc., priority 2018, dated 2025)
Only a part of the results on these compounds is given; other tests are left out.

Test system: Herpes Simplex Virus Type 1 (HSV-1), Strain KOS
Experiment: Plaque inhibition assay against HSV-1 strain KOS on Vero cells
Type: cell-based
Conditions: 3 mg/ml

Substance: Adenosine 5′-diphosphoribose Sodium Salt
- effect on HSV-1 plaque number and plaque size: inhibition of plaque number and plaque size
